Experimental data: PubChem BioAssay AID504761 (Drosophila RNAi Screening Center, 2011)
The screen tested about 22,000 reagents; this is a random part of those with a known target gene and a result. Over the whole deposit, 116 (0.52%) are marked active. 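Calls depend on retest data that are not deposited; infection was ranked per plate without normalising between plates; the unit of the infection score is not given.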 Raw values vary from plate to plate and are shown uncorrected. A number with no mark means an inactive call. Not stated in the record: the amount of reagent, the time to read-out.

Assay: 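Genome-wide fly cell screen for genes dengue virus requires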 (primary screen)
Cell system: D.Mel-2 cells from Drosophila
Reagent: long dsRNA against Drosophila genes
Treatment: infection with dengue virus type 2; dose and infection time not stated
Measured: 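Per well on two replicate plates, imaging gave the percent of cells positive for viral envelope protein, ranked by infection, and a nuclear count of cells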
Scale: infection score: higher = more virus-infected cells; cell count: higher = more cells in the well
Rule for the call: 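Low infection ranks in the two replicates (chance level up to 0.065) followed by a retest with a 1.5-fold or larger significant decrease, p below 0.05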
Calls: active = confirmed: knock-down lowers infection; inactive = not picked or not confirmed

| gene | dsRNA | infection score, replicate 1 | infection score, replicate 2 | cell count, replicate 1 | cell count, replicate 2 |
| --- | --- | --- | --- | --- | --- |
| bc10 | DRSC11326 | 1.12 | 5.38 | 5808 | 5821 |
| Grip91 | DRSC20249 | 16.9 | 21.6 | 6534 | 6724 |
| Ing3 | DRSC20002 | 11.6 | 8.36 | 6166 | 6615 |
| Ing3 | DRSC27959 | 5.35 | 16.8 | 1889 | 5201 |
| ERp60 | DRSC07309 | 10.3 | 20.1 | 4801 | 6075 |
| ERp60 | DRSC24471 | 2.05 | 1.44 | 5375 | 5760 |
| CG13760 | DRSC18617 | 1.55 | 9.07 | 6572 | 6449 |
| lectin-29Ca | DRSC02635 | 11.1 | 1.61 | 5507 | 6847 |
| ATPsynG | DRSC02928 | 2.27 | 1.73 | 6039 | 6318 |
| CG4622 | DRSC04479 | 29.5 | 16.6 | 5712 | 6530 |
| B-H1 | DRSC21922 | 1.81 | 2.99 | 6126 | 6123 |
| B-H1 | DRSC27190 | 10.6 | 22.2 | 7094 | 5524 |
| CG11068 | DRSC19369 | 1.9 | 0.94 | 6008 | 7024 |
| ghi | DRSC08985 | 5.75 | 2.35 | 5995 | 6439 |
| Npc1a | DRSC03378 | 3.5 | 3.3 | 6912 | 6945 |
| CG12605 | DRSC08286 | 2.1 | 3.78 | 6580 | 6025 |
| CG12605 | DRSC28756 | – | – | 374 | 402 |
| Amy-d | DRSC05919 | 9.76 | 3.19 | 5346 | 846 |
| CG43316 | DRSC06296 | 15.4 | 28.4 | 6254 | 5275 |
| CG43316 | DRSC06297 | 11 | 17.5 | 6246 | 5538 |
| CG43316 | DRSC28460 | 7.32 | 12.3 | 2881 | 4839 |
| CG18128 | DRSC04304 | 8.28 | 8.6 | 6458 | 7161 |
| ATPsynB | DRSC09659 | 20.5 | 15.6 | 4513 | 4331 |
| CG5758 | DRSC02889 | 1.24 | 12.8 | 887 | 5269 |
| CG5758 | DRSC02890 | 4.66 | 9.45 | 1673 | 5997 |
| CG5758 | DRSC29658 | – | 23.1 | 312 | 5689 |
| Opbp | DRSC04966 | 8.89 | 4.95 | 6308 | 6803 |
| Opbp | DRSC28850 | 12.9 | 7.32 | 3017 | 1203 |
| l(2)k09848 | DRSC04894 | 26.6 | 24.8 | 5611 | 5616 |
| cnc | DRSC14676 | 15.2 | 1.65 | 3759 | 6652 |
| cnc | DRSC15289 | 12.1 | 14 | 6203 | 5591 |
| cnc | DRSC15600 | 7.26 | 12.2 | 6957 | 4248 |
| cnc | DRSC15601 | 12.5 | 9.47 | 4856 | 5430 |
| CG9123 | DRSC20156 | 1.88 | 1.41 | 6692 | 6825 |
| CG32295 | DRSC23259 | 8.3 | 12.5 | 7286 | 6798 |
| ppk14 | DRSC03238 | 2.92 | 1.63 | 6542 | 6120 |
| CG15760 | DRSC19725 | 5.27 | 8.04 | 6609 | 6582 |
| CG15760 | DRSC25944 | 2.02 | 4.35 | 6298 | 6620 |
| CG2150 | DRSC23444 | 14.6 | 8.79 | 6270 | 6142 |
| CG4404 | DRSC19897 | 2.16 | 7.9 | 742 | 1126 |
| CG4404 | DRSC23956 | 2.95 | 2.76 | 7024 | 6997 |
| CG2663 | DRSC12314 | 4.84 | 27 | 6987 | 5958 |
| CG2663 | DRSC28701 | 10.1 | 8.65 | 5547 | 5642 |
| CG32700 | DRSC17857 | 5.87 | 8.6 | 6794 | 6649 |
| CG32700 | DRSC17858 | 0.9 | 2.74 | 6445 | 6786 |
| CG4882 | DRSC04495 | 10.9 | 12.5 | 5003 | 4054 |
| CG4882 | DRSC29963 | 12.9 | 9.55 | 5354 | 5443 |
| rdog | DRSC14431 | 1.6 | 4.01 | 6139 | 6529 |
| rdog | DRSC26545 | 3.21 | 4.76 | 6763 | 6241 |
| CG31055 | DRSC13832 | 7.66 | 4.86 | 5664 | 5062 |
| CG13984 | DRSC02316 | 5.61 | 2.93 | 6546 | 6494 |
| mRpL35 | DRSC14586 | 1.3 | 5.75 | 6156 | 5440 |
| TfIIFbeta | DRSC16884 | 1.63 | 3.61 | 6302 | 6176 |
| TfIIFbeta | DRSC21447 | 5.49 | 2.41 | 3570 | 3074 |
| TfIIFbeta | DRSC29742 | 30.4 | 10.8 | 5858 | 4961 |
| CG4822 | DRSC00669 | 12.8 | – | 2875 | 589 |
| Cht4 | DRSC04603 | 9.23 | 28.4 | 6856 | 6693 |
| Kr-h1 | DRSC00908 | 7.04 | 1.82 | 6437 | 6327 |
| Kr-h1 | DRSC03355 | 11.2 | 0.86 | 5991 | 6594 |
| Kr-h1 | DRSC23629 | 2.96 | 2.18 | 6075 | 5684 |
